Human monoclonal antibodies against the spike receptor-binding domain (heavy:light variable regions). IC50 against pseudoviruses bearing the spike of naturally observed variants; lower = stronger; >10 µg/ml means not reached at the top dose. No active / inactive call. The stated detection limit is 0.0005 µg/ml; values near or below 0.001 µg/ml lie at the floor of the assay.
Columns and labels:
Assay in all cases: pseudovirus neutralization IC50; higher = weaker neutralization
[1] = molecular target: SARS-CoV-2 Omicron BA.1 spike pseudovirus
Method: (§1)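 Single-round VSV luciferase pseudovirus mixed with antibody dilutions for 1 h and put on Huh-7 cells for about a day; IC50 from the dose curve.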

[2] = molecular target: SARS-CoV-2 Omicron BA.2 spike pseudovirus
Method: as §1

[3] = molecular target: SARS-CoV-2 Omicron BA.2.75 spike pseudovirus
Method: as §1

[4] = molecular target: SARS-CoV-2 Omicron BA.2.75.2 spike pseudovirus
Method: as §1

[5] = molecular target: SARS-CoV-2 Omicron BA.5 spike pseudovirus
Method: as §1

[6] = molecular target: SARS-CoV-2 Omicron BM.1.1.1 spike pseudovirus
Method: as §1

[7] = molecular target: SARS-CoV-2 Omicron BQ.1.1 spike pseudovirus
Method: as §1

[8] = molecular target: SARS-CoV-2 Omicron BR.2 spike pseudovirus
Method: as §1

[9] = molecular target: SARS-CoV-2 Omicron CA.1 spike pseudovirus
Method: as §1

[10] = molecular target: SARS-CoV-2 Omicron XBB spike pseudovirus
Method: as §1

[11] = molecular target: SARS-CoV-2 early D614G spike pseudovirus
Method: as §1

Binder | pseudovirus neutralization IC50 [1] | pseudovirus neutralization IC50 [2] | pseudovirus neutralization IC50 [3] | pseudovirus neutralization IC50 [4] | pseudovirus neutralization IC50 [5] | pseudovirus neutralization IC50 [6] | pseudovirus neutralization IC50 [7] | pseudovirus neutralization IC50 [8] | pseudovirus neutralization IC50 [9] | pseudovirus neutralization IC50 [10] | pseudovirus neutralization IC50 [11]
BD56-1376 (protein) chain 1: EVQLLESGGGLVQPGGSLRLSCAASGFTFRSYAMSWVRQAPGKGLEWVSVIYSDDRITYYADSVMGRFTISRDNSKNTLYLQMNSLRAEDTAVYYCAKGDYGSGTYYNPPPDYWGQGTLVTVSS chain 2: QSVLTQPPSASGTPGQRVTISCSGSRSNIENNYVYWYQQLPGTAPKLLVYRNNQRPSGVPDRFSASKSGTSASLAISGLRSEDEADYYCAAWDDSLSPWVFGGGTKLTVL | > 10 µg/mL | 0.00195 µg/mL | > 10 µg/mL | > 10 µg/mL | > 10 µg/mL | > 10 µg/mL | > 10 µg/mL | > 10 µg/mL | > 10 µg/mL | > 10 µg/mL | > 10 µg/mL
BD58-0453 (protein) chain 1: EVQLVESGGGLVQPGGSLRLSCAASGFTFRSYWMHWVRQAPGKGLVWVSRINSDGSSTSYADSVKGRFTISRDNAKNTLYLQMNSLRAEDTAVYYCARDPIMGTGMVKGDYWGQGTLVTVSS chain 2: NFMLTQPHSVSESPGKTVTISCTGSSGSIASNYVQWYQQRPGSAPTTVIYEDNQRPSGVPDRFSGSIDSSSNSASLTISGLKTEDEADYYCQSYDSSNWVFGGGTKLTVL | > 10 µg/mL | > 10 µg/mL | > 10 µg/mL | > 10 µg/mL | > 10 µg/mL | > 10 µg/mL | > 10 µg/mL | > 10 µg/mL | > 10 µg/mL | > 10 µg/mL | > 10 µg/mL
BD56-1491 (protein) chain 1: QLQLQESGPGLVKPSETLSLTCTVSGGSISSSSYYWGWIRQPPGKGLEWIGSIYYSGSTYYNPSLKSRVTISVDTSKNQFSLKLNSVTAADTAVYYCARLWILGNWFDPWGQGTLVTVSS chain 2: NFMLTQPHSVSESPGKTVTISCTGSSGSIAINYVQWYQQRPGSAPTTVIYEDNQRPSGVPDRFSGSIDSSSNSASLTISGLKTEDEADYYCQSYHSSNWVFGGGTKLTVL | > 10 µg/mL | > 10 µg/mL | > 10 µg/mL | > 10 µg/mL | > 10 µg/mL | > 10 µg/mL | > 10 µg/mL | > 10 µg/mL | > 10 µg/mL | > 10 µg/mL | > 10 µg/mL
BD58-0529 (protein) chain 1: QVQLMQSGTEVKKPGASVKVSCKASGYPFTSYGISWVRQAPGQGLEWMGWISPYYGDAKYAEKLQGRATLTTDTSTSTAYMEMTSLTSDDTAVYYCAREGSYYGSGRQNFRDKRRLYYYGMDVWGQGTTVTVSS chain 2: DIQMTQSPPSLSASVGDRVTITCRASQSISSWLAWYQQKPGKAPKLLIYMASNLESGVPSRFSGGGSGTEFTLTISSLQPDDFATYYCQQYHNSVTFGQGTKVEIK | > 10 µg/mL | > 10 µg/mL | > 10 µg/mL | > 10 µg/mL | > 10 µg/mL | > 10 µg/mL | > 10 µg/mL | > 10 µg/mL | > 10 µg/mL | > 10 µg/mL | > 10 µg/mL
BD58-0553 (protein) chain 1: QVQLVESGGGVVQPGRSLRLSCAASGLSFSTYAMHWVRQAPGKGLEWVAAISYDGSKKYYADSVKGRFTISRDNSKNTLYLQMNSLRAEETAMYYCASHGCTSATCRRVSNWGSIDYWGQGTLVTVSS chain 2: QSVLSQAPSASGTPGQGVTISCSGSSSNIGNNYVYWYQQLPGTAPRLLIYRNNQRPSGVPDRFSGSKSGTSASLAISGLRSEDEADYYCATWDDSLSGRVFGGGTKLTVL | > 10 µg/mL | > 10 µg/mL | > 10 µg/mL | > 10 µg/mL | > 10 µg/mL | > 10 µg/mL | > 10 µg/mL | > 10 µg/mL | > 10 µg/mL | > 10 µg/mL | > 10 µg/mL
BD58-0556 (protein) chain 1: QVQLVESGGGVVQPGRSLRLSCAASGLSFSTYAMHWVRQAPGKGLEWVAAISYDGSKKYYADSVKGRFTISRDNSKNTLYLQMNSLRAEETAMYYCASHGCSSATCRRVSNWGSIDYWGQGTLVTVSS chain 2: QSVLSQAPSASGTPGQGVTISCSGSSSNIGNNYVYWYQQLPGTAPRLLIYRNNQRPSGVPDRFSGSKSGTSASLAISGLRSEDEADYYCATWDDSLSGRVFGGGTKLTVL | > 10 µg/mL | > 10 µg/mL | > 10 µg/mL | > 10 µg/mL | > 10 µg/mL | > 10 µg/mL | > 10 µg/mL | > 10 µg/mL | > 10 µg/mL | > 10 µg/mL | > 10 µg/mL
BD58-0567 (protein) chain 1: EVQLLESGGGLVQPGGSLSLSCSASGFTFSSYAMGWVRQAPGKGLEWVSGITDTGSGAYYADSMKGRFTVSRDNPGNTVYLQLNSLRDDDTATYYCVRYTSSWFPIGSFADWGRGTLVAVSS chain 2: QSALTQPASVSGSPGQSITISCTGTSDDIGNYYYVSWYQQHPGKAPKLMIYDVSNRPSGVSNRFFGSKSGNTASLTIFGLQADDEADYYCSSYTTSSTWVFGGGTKLTVL | > 10 µg/mL | > 10 µg/mL | > 10 µg/mL | > 10 µg/mL | > 10 µg/mL | > 10 µg/mL | > 10 µg/mL | > 10 µg/mL | > 10 µg/mL | > 10 µg/mL | > 10 µg/mL
BD58-0520 (protein) chain 1: QVQLVQSGAQVKKPGASVKVSCTASGYTFSNYYIHWVRQAPGQGLEWMGTINPNSGTTSDTRKFQGRVTMTRDTYTRTVYMELSSLRSEDTAVYYCARQALVAVGTGESLDYWGQGTLLTVSS chain 2: DIQMTQSPSSLSALVGDRVTITCRASQNIRRYFNWYQQTPGKAPKLLIYGTTNLQTGVPSRFSGSGSGTDFTLNISSLQPEDIATYYCQQTYGSPWTFGQGTKVEIK | > 10 µg/mL | > 10 µg/mL | > 10 µg/mL | > 10 µg/mL | > 10 µg/mL | > 10 µg/mL | > 10 µg/mL | > 10 µg/mL | > 10 µg/mL | > 10 µg/mL | > 10 µg/mL
BD58-0480 (protein) chain 1: EVQLVESGGGLVKPRGSLRLSCAASGFTFSSAWMSWVRQAPGKGLEWVGRIESKTDGGTTDYAAPVKGRFTISRDDSKNTLYLQMNSLKTEDTAVYYCNTGASSGPFYYYGLDVWGQGTTVTVSS chain 2: QSVLTQPPSASGTPGQRVTISCSGSSSNIGSYYVYWYQQLPGTAPKLLIYSNNQRPSGVPDRFSGSKSGTSASLAISGLRSEDEADYYCAAWDDSLGGLYVFGTGTKVTVL | > 10 µg/mL | > 10 µg/mL | > 10 µg/mL | > 10 µg/mL | > 10 µg/mL | > 10 µg/mL | > 10 µg/mL | > 10 µg/mL | > 10 µg/mL | > 10 µg/mL | > 10 µg/mL
BD56-1380 (protein) chain 1: QVHLIQSGTEVKRPGASVKVSCKVSGYSLSELSMHWVRQAPGKGLEWMGGFDLRDGETIYAQKFQGRVTMSEDTSTDTAYMELRSLRSEDTAVYYCTTGGSDSFDPWGQGTLVTVSS chain 2: DIQLTQSPSFLSASVGDRVTITCRASQGISSYLAWYQQKPGKAPKLLIYTASTLESGVPSRFSGSGSGTEFTLTISSLQPEDFATYFCQHLNNFPFTFGPGTTVDIK | > 10 µg/mL | > 10 µg/mL | > 10 µg/mL | > 10 µg/mL | > 10 µg/mL | > 10 µg/mL | > 10 µg/mL | > 10 µg/mL | > 10 µg/mL | > 10 µg/mL | > 10 µg/mL

Source: the supplement of paper PMC9931576
